Target: Anthrax Lethal Factor (LF) (Bacillus anthracis, UniProt P15917)
Assay: competitive binding experiment: Sulindac-bMR binding to LF in presence of free competitor
Conditions: increasing LF

SMILES: CCCCc1ccc(C(=O)O)nc1 [Fusaric Acid]
- change in ΔMRtoxin of sulindac bMR nanosensor with free competitor: significant decrease in the ΔMRtoxin
